The entries are a selection whose mix differs from that of the whole data set. The source made the active and inactive calls.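 The calls were made as follows: active = top-ranked compounds by inhibition in the single 10 µM screen, taking a fixed number of the strongest; inactive = the rest, inconclusive results apart.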
What follows are compounds tested on phosphomevalonate kinase (Streptococcus pneumoniae D39) (assay: S. pneumoniae PMK inhibitors, primary screen, biochemical, mevalonate pathway, pilot trial included (AID 539;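 also: 0% = full reaction with DMSO carrier and 100% = background rate without enzyme reaction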)). Conditions: purified PMK, PK/LDH-coupled NADH absorbance 340 nm; at 10 µM; stronger effect = higher value.

| SMILES | inhibition |
| --- | --- |
| N#CC1(Nc2ccccc2)CCN(CCc2ccccc2)CC1 | inactive: 3% |
| O=C(OC1CN2CCC1CC2)C1c2ccccc2Oc2ccccc21 (configuration not stated) | inactive: 11% |
| COc1ccc(NC2CCN(CCc3ccccc3)CC2)c(OC)c1 | inactive: 2% |
| Fc1ccccc1NC1CCN(Cc2ccccc2)CC1 | inactive: 15% |
| CCC(CO)(C(=O)OC1CN2CCC1CC2)c1ccccc1 (configuration not stated) | inactive: 17% |
| CCOc1ncccc1C(=O)NCC1(N2CCOCC2)CCCCC1 | inactive: 19% |
| N/C(=N\O)c1c(N)no[n+]1[O-] | inactive: 13% |
